We go through seven compounds from patent US12329160B2, “Activated ferrate compositions” (THE TEXAS A & M UNIVERSITY SYSTEM, priority 2018, dated 2025).

Series [1] is described as follows: Oxidation of individual organic contaminants by Fe^VI with or without S2O3^2− in buffered ultrapure water, HPLC. The format is physicochemical. The note with it: for oxidation by Fe^VI—S2O3^2− with versus without oxygen (FIG. 7): air or nitrogen, contaminant 1.0 μM; for removal by Fe^VI—S2O3^2− (FIG. 3): individual contaminant 1.0 μM. The method, then: To test liquid ferrate solutions using second approach, batch experiments were conducted in a series of 100 mL glass jars under constant stirring rate (400 rpm) with a magnetic stirrer. Oxidation of each micropollutant or their mixtures by Fe^VI with or without S2O3^2− was initiated by mixing equal solution volumes of 10 mL, and the final reaction solutions were kept at 8.00±0.04.
The stock solutions of these contaminants (10.0 μM) were prepared in 10.0 mM Na2HPO4, and diluted using the same buffer solution before the removal experiments. […] Solutions of Fe^VI were prepared by adding K2FeO4 powders to 5.0 mM Na2HPO4/1.0 mM Na2B4O7.10H2O buffer solution. The concentrations of Fe^VI were quantitatively measured using an UV-visible spectrometer at a wavelength of 510 nm with a molar absorption coefficient of ε510 nm=1150 M^−1 cm^−1: The pH value of the contaminant solutions was adjusted to 7.50 via the addition of diluted H3PO4 before mixing with Fe^VI solution to achieve the desired reaction pH at 8.00±0.04. Methanol and phosphoric acid (85%) of high performance liquid chromatography (HPLC) grade were used in testing. 5,5-dimethyl-1-pyrroline-N-oxide (DMPO) was used as the spin trap reagent for identifying the possible reactive inorganic radicals (e.g., .OH and/or SO4.^−) in the oxidation system. All the other chemicals (e.g., hydroxylamine and permanganate) were provided from commercial sources and used without further purification. Two kinds of natural water samples were individually obtained from Brazos River (N 30°42′33″, E 96°28′5″, College Station, Texas) and Lake Bryan (N 30°33′30″, E 96°25′25″, Bryan, Texas). […] These real water samples were filtered through 0.45 μm hydrophilic PVDF membrane to remove the insoluble particles before spiking the contaminant mixtures (1.0 μM for each compound). 20.0 mM borate buffer was used to stabilize the solution pH of the real waters at 8.00±0.04. All the other solutions were prepared using the ultrapure water (resistivity >18 MΩ cm^−1).
Experiments were conducted in a series of 100 mL glass jars under constant stirring rate (400 rpm) with a magnetic stirrer. Oxidation of each contaminant or their mixtures by Fe^VI with or without S2O3^2− was initiated by mixing equal solution volumes of 10 mL, and the final reaction solutions were kept at 8.00±0.04. The concentration of Fe^VI was maintained at 100.0 μM, and the ratios of [S2O3^2−]:[Fe^VI] in the system were varied from 0 to 5.0 for aqueous removal of TMP (5.0 μM). […] After 30 seconds of oxidation, 20.0 μL NH2OH solution (1 M) was added to quench the reactions. Samples were transferred into high performance liquid chromatography (HPLC) vials, and were subsequently analyzed using the HPLC method. Similar experiments using TMP as a target contaminant were also performed by replacing Fe^VI with Mn^VII or chlorine under the same conditions.

Assay in series [2]: not given
This is another data set of the same source.

The mark [3] stands for this setting: Fe^VI 100.0 μM, S2O3^2− 12.5 μM, pH 8.00, 30 s.
[4] abbreviates: air saturated, same concentrations as Fe^VI experiments, 30 seconds.

Take `CC(C)NCC(O)COc1ccc(CC(N)=O)cc1` (stereo not shown) [ATL, Atenolol]: the “oxidation by Fe^VI—S2O3^2− with versus without oxygen (FIG. 7)” value in series [1] (setting [3]) is listed as “no obvious difference”.
As for `NC(=O)N1c2ccccc2C=Cc2ccccc21` [CMZ, Carbamazepine], the “removal by Fe^VI—S2O3^2− (FIG. 3)” value in series [1] (setting [3]) is recorded as “Almost complete removal”.
`O=C(O)Cc1ccccc1Nc1c(Cl)cccc1Cl` [DCF, Diclofenac]: in series [1] (setting [3]), the “oxidation by Fe^VI—S2O3^2− with versus without oxygen (FIG. 7)” value was “no obvious difference” and the “removal by Fe^VI—S2O3^2− (FIG. 3)” value is “Almost complete removal”.
The matching figures for `CCN1CCN(c2cc3c(cc2F)c(=O)c(C(=O)O)cn3C2CC2)CC1` [ENR, Enrofloxacin]: “no obvious difference” and “Almost complete removal”.
Take `COc1cc(NS(=O)(=O)c2ccc(N)cc2)nc(OC)n1` [SMX, Sulfadimethoxine]: in series [1] (setting [3]), the “removal by Fe^VI—S2O3^2− (FIG. 3)” value is listed as “Almost complete removal”.
Consider `COc1cc(Cc2cnc(N)nc2N)cc(OC)c1OC` [TMP, Trimethoprim], for which, in series [1] (1 mM DMSO, TMP 5.0 μM, Fe^VI 100.0 μM, S2O3^2− 12.5 μM, pH 8.00, 30 s), the “oxidation of TMP by Fe^VI—S2O3^2− in the presence of DMSO (FIG. 9)” value is given as “almost inhibited”. The “oxidation of TMP by Fe^VI—S2O3^2− without oxygen versus with oxygen” value in series [1] (N2 purging, TMP 5.0 μM, ratios 0-5.0, pH 8.0, 30 seconds) is given as “did not show any significant difference”. In addition, the “removal by Fe^VI—S2O3^2− (FIG. 3)” value in series [1] (setting [3]) is given as “Almost complete removal”. For the same compound, in series [1] (only S2O3^2− (12.5 μM) added, no Fe^VI), the “oxidation of TMP by S2O3^2− only” value was “no oxidation”. Moreover, the “effect of S2O3^2− addition on oxidation of TMP by Mn^VII” value under setting [4] is recorded as “no enhancement”. For the same compound, the “oxidation of TMP by Mn^VII—S2O3^2−” value (molar ratio 5.0, 30 seconds) is “No oxidation”. Also, the “effect of S2O3^2− addition on oxidation of TMP by chlorine” value in series [2] (setting [4]) is “no enhancement”. In series [2] (molar ratio 5.0, 30 seconds), the “oxidation of TMP by chlorine-S2O3^2−” value is reported as “No oxidation”.
As to Aspartame [APT], the “oxidation by Fe^VI—S2O3^2− with versus without oxygen (FIG. 7)” value in series [1] (setting [3]) is “no obvious difference”.
